Taken from: PubChem BioAssay AID1224833 (University of Georgia, 2016)
The whole screen tested about 12,000 reagents; below is an unselected part. Of all reagents, about 5,600 (46%) were called active. 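Active calls cover z-scores past 1 in both directions, so they include lowered as well as raised rotavirus replication.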

- Aim: 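Host factors restraining rotavirus as candidate antiviral genes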 (primary screen)
- System: monkey MA104 kidney cells
- Reagent: siRNA pool against human genes, 50 nM
- Timing: 48 h knock-down before infection; read 24 h after infection
- Challenge: infection with rotavirus strain RV3 two days after transfection; infectious dose for this stage not given
- Measured: 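Rotavirus antigen per well by fluorescent immunoassay, normalised to non-targeting control wells on each plate and given as a standard z-score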
- Scale: z-score vs non-targeting control: higher = more rotavirus replication than with non-targeting control
- Call rule: In these data the active calls have z-score vs non-targeting control at about -1 or lower, or at about 1 or higher
- Meaning of the calls: active = z-score beyond 1 either way; inactive = z-score within 1 of zero

With GTPBP4 (GeneID 23560), what was measured?
z-score vs non-targeting control: 0.925; Call: inactive

How did the screen score TINAGL1 (GeneID 64129)?
z-score vs non-targeting control: -3.57; Call: active

What is on record for DAGLA (GeneID 747)?
z-score vs non-targeting control: 0.875; Call: inactive

What did the screen give for ERP29 (GeneID 10961)?
z-score vs non-targeting control: -1.78; Call: active

Which result is listed for FOXF1 (GeneID 2294)?
z-score vs non-targeting control: 1.42; Call: active

With SNX8 (GeneID 29886), how do the results read?
z-score vs non-targeting control: -0.984; Call: inactive

What did the screen give for PEG3 (GeneID 5178)?
z-score vs non-targeting control: -0.942; Call: inactive

Which result is listed for APOL6 (GeneID 80830)?
z-score vs non-targeting control: 0.304; Call: inactive

For AKR1C3 (GeneID 8644), how do the results read?
z-score vs non-targeting control: 0.283; Call: inactive

With DIDO1 (GeneID 11083), what was measured?
z-score vs non-targeting control: 0.962; Call: inactive

What did the screen give for PNO1 (GeneID 56902)?
z-score vs non-targeting control: -1.96; Call: active

For RIBC1 (GeneID 158787), what was measured?
z-score vs non-targeting control: -3.09; Call: active

With AKAP6 (GeneID 9472), what does the deposit list?
z-score vs non-targeting control: -1.54; Call: active

Which result is listed for CYP2C19 (GeneID 1557)?
z-score vs non-targeting control: 0.798; Call: inactive

With CSRP2 (GeneID 1466), how do the results read?
z-score vs non-targeting control: 1.1; Call: active

Which result is listed for CEBPA (GeneID 1050)?
z-score vs non-targeting control: 0.721; Call: inactive

What did the screen give for SVOPL (GeneID 136306)?
z-score vs non-targeting control: 4.91; Call: active

With FMO3 (GeneID 2328), what does the deposit list?
z-score vs non-targeting control: -0.478; Call: inactive

For PSMA3 (GeneID 5684), what was measured?
z-score vs non-targeting control: 0.619; Call: inactive

How did the screen score CD2 (GeneID 914)?
z-score vs non-targeting control: -1.65; Call: active

With SPATA31H1 (GeneID 84226), what was measured?
z-score vs non-targeting control: -0.914; Call: inactive

For NDUFB9 (GeneID 4715), what was measured?
z-score vs non-targeting control: -0.648; Call: inactive

With ABTB3 (GeneID 121551), what does the deposit list?
z-score vs non-targeting control: -0.479; Call: inactive

For ZNF582 (GeneID 147948), what was measured?
z-score vs non-targeting control: -0.932; Call: inactive

With CNST (GeneID 163882), how do the results read?
z-score vs non-targeting control: 0.458; Call: inactive

For TSPY2 (GeneID 64591), what does the deposit list?
z-score vs non-targeting control: 0.394; Call: inactive

Which result is listed for CYP19A1 (GeneID 1588)?
z-score vs non-targeting control: -1.85; Call: active

With OR56B1 (GeneID 387748), what does the deposit list?
z-score vs non-targeting control: 1.25; Call: active

How did the screen score POLR2B (GeneID 5431)?
z-score vs non-targeting control: -1.68; Call: active

What did the screen give for RALY (GeneID 22913)?
z-score vs non-targeting control: -0.484; Call: inactive

With RHBDL1 (GeneID 9028), what does the deposit list?
z-score vs non-targeting control: 1.2; Call: active

What did the screen give for ZNF112 (GeneID 7771)?
z-score vs non-targeting control: -0.0217; Call: inactive

With AFM (GeneID 173), how do the results read?
z-score vs non-targeting control: -0.77; Call: inactive

For MPST (GeneID 4357), how do the results read?
z-score vs non-targeting control: 1.76; Call: active

What did the screen give for ZBTB14 (GeneID 7541)?
z-score vs non-targeting control: -0.351; Call: inactive

For E2F3 (GeneID 1871), how do the results read?
z-score vs non-targeting control: -0.583; Call: inactive

For TLR10 (GeneID 81793), what was measured?
z-score vs non-targeting control: -0.539; Call: inactive

With HOMEZ (GeneID 57594), what does the deposit list?
z-score vs non-targeting control: 0.421; Call: inactive

For LIN37 (GeneID 55957), how do the results read?
z-score vs non-targeting control: -0.179; Call: inactive

Which result is listed for ZNF570 (GeneID 148268)?
z-score vs non-targeting control: 1.28; Call: active

For PKP3 (GeneID 11187), what was measured?
z-score vs non-targeting control: -0.648; Call: inactive

What is on record for HPCAL1 (GeneID 3241)?
z-score vs non-targeting control: 0.642; Call: inactive

With VPS37D (GeneID 155382), what was measured?
z-score vs non-targeting control: -0.386; Call: inactive

For IGFBP5 (GeneID 3488), how do the results read?
z-score vs non-targeting control: -0.085; Call: inactive

What is on record for RB1 (GeneID 5925)?
z-score vs non-targeting control: -1.14; Call: active

For IL33 (GeneID 90865), how do the results read?
z-score vs non-targeting control: -1.33; Call: active

What did the screen give for GLUL (GeneID 2752)?
z-score vs non-targeting control: -2.27; Call: active

For UBXN10 (GeneID 127733), what was measured?
z-score vs non-targeting control: 2.58; Call: active

For ACTR6 (GeneID 64431), how do the results read?
z-score vs non-targeting control: -1.39; Call: active

With SPTBN1 (GeneID 6711), what was measured?
z-score vs non-targeting control: 1.74; Call: active

For CRAMP1 (GeneID 57585), how do the results read?
z-score vs non-targeting control: -1.93; Call: active

What did the screen give for NFYA (GeneID 4800)?
z-score vs non-targeting control: -1.74; Call: active

For KIF13B (GeneID 23303), what does the deposit list?
z-score vs non-targeting control: -1.01; Call: active

With FKBP9 (GeneID 11328), how do the results read?
z-score vs non-targeting control: -1.51; Call: active

For ST8SIA5 (GeneID 29906), what does the deposit list?
z-score vs non-targeting control: 0.94; Call: inactive

With S100A1 (GeneID 6271), how do the results read?
z-score vs non-targeting control: 0.368; Call: inactive

What did the screen give for WBP1 (GeneID 23559)?
z-score vs non-targeting control: -0.472; Call: inactive

For LCE1B (GeneID 353132), what was measured?
z-score vs non-targeting control: -1.52; Call: active

With VTI1A (GeneID 143187), how do the results read?
z-score vs non-targeting control: -0.622; Call: inactive

For STIMATE (GeneID 375346), how do the results read?
z-score vs non-targeting control: 1.54; Call: active

9 entries from above, set out differently.
AKAP6 (GeneID 9472)
- z-score vs non-targeting control: -1.54
- Call: active

CYP2C19 (GeneID 1557)
- z-score vs non-targeting control: 0.798
- Call: inactive

CSRP2 (GeneID 1466)
- z-score vs non-targeting control: 1.1
- Call: active

CEBPA (GeneID 1050)
- z-score vs non-targeting control: 0.721
- Call: inactive

SVOPL (GeneID 136306)
- z-score vs non-targeting control: 4.91
- Call: active

FMO3 (GeneID 2328)
- z-score vs non-targeting control: -0.478
- Call: inactive

PSMA3 (GeneID 5684)
- z-score vs non-targeting control: 0.619
- Call: inactive

CD2 (GeneID 914)
- z-score vs non-targeting control: -1.65
- Call: active

SPATA31H1 (GeneID 84226)
- z-score vs non-targeting control: -0.914
- Call: inactive
